Compound potency records, mixed from different reports. Data source: NIAID ChemDB in PubChem.

All rows: whole-cell or culture tests; species: HIV-1; cells: MT-4; read-out: EC95

ECn: concentration that inhibits the pathogen or its effect by n%.

SMILES | strain | changes | read by | conditions | value
CC(C)(C)NC(=O)[C@@H]1CN(C(C)(C)c2cc3cnccc3o2)CCN1C[C@@H](O)C[C@@H](Cc1ccccc1)C(=O)N[C@H]1c2ccccc2OC[C@H]1O | NL4-3 |  |  |  | 0.008 µM
O=C(O)C(=O)CC(=O)c1cccc(Cc2cccc(F)c2)c1 | IIIB |  | p24 |  | 2.5 µM
CC(C)(C)CNC(=O)[C@@H]1CN(C(C)(C)c2cc3cnccc3o2)CCN1C[C@@H](O)C[C@@H](Cc1ccccc1)C(=O)N[C@H]1c2ccccc2OC[C@H]1O | NL4-3 |  | p24 |  | 0.031 µM
CN(C)c1ccc(-n2nnnc2SCC(=O)Nc2ccccc2Cl)cc1 |  |  | p24 |  | <10 µM
CC(C)(c1ncc(-c2ccc(Cl)cc2)s1)N1CCN(C[C@@H](O)C[C@@H](Cc2cc3cnccc3s2)C(=O)N[C@H]2c3ccccc3OC[C@H]2O)[C@H](C(=O)NCC(F)(F)F)C1 | 4X (PR M46I L63P V82T I84V) | PR-M46I L63P V82T I84V | p24 |  | <0.0078 µM
CN1CCN(C2(Cn3c(=O)c(O)c4n(c3=O)CCN(Cc3ccc(F)cc3)C4=O)CCCCC2)CC1 |  |  | p24 |  | <10 µM
Cc1cc(C)c(-n2nnnc2SCC(=O)Nc2ccccc2C#N)c(C)c1 |  |  | p24 |  | <10 µM
CN1C[C@@H](O)C(C)(C)Cn2c(c3c(c(O)c2=O)C(=O)N(Cc2ccc(F)c(Cl)c2)CC3)C1=O |  |  | p24 |  | 0.031 µM
Cc1nnc(C[C@H](C[C@H](O)CN2CCN(C(C)(C)c3ncc(-c4ccc(F)cc4)o3)C[C@H]2C(=O)NCC(F)(F)F)C(=O)N[C@H]2c3ccccc3OC[C@H]2O)o1 | V-18 Clinical isolate | PR-L10I M36I N37D M46I R57K L63P A71V G73S I84V L90M I93L | p24 |  | 0.063 µM
CCN1CCN(C[C@@H](O)C[C@@H](Cc2ccccc2)C(=O)N[C@H]2c3ccccc3C[C@H]2O)[C@H](C(=O)NC(C)(C)C)C1 | IIIB |  | p24 |  | >0.4 µM
CC(C)CNC(=O)[C@@H]1CN(C(C)(C)c2cc3cnccc3o2)CCN1C[C@@H](O)C[C@@H](Cc1ccccc1)C(=O)N[C@H]1c2ccccc2OC[C@H]1O | NL4-3 |  | p24 |  | 0.015 µM
COc1cncc(-c2cnc(C(C)(C)N3CCN(C[C@@H](O)C[C@@H](Cc4nnc(C)o4)C(=O)N[C@H]4c5ccccc5OC[C@H]4O)[C@H](C(=O)NCC(F)(F)F)C3)o2)c1 | V-18 Clinical isolate | PR-L10I M36I N37D M46I R57K L63P A71V G73S I84V L90M I93L | p24 |  | >1 µM
CN(C)C(c1ccccc1)c1nc(C(=O)NCc2ccc(F)cc2)c(O)c(=O)[nH]1 |  |  | p24 | 50% human serum | >10 µM
COc1cncc(-c2cnc(C(C)(C)N3CCN(C[C@@H](O)C[C@@H](Cc4nnc(-c5ccccc5)o4)C(=O)N[C@H]4c5ccccc5OC[C@H]4O)[C@H](C(=O)NCC(F)(F)F)C3)o2)c1 | V-18 Clinical isolate | PR-L10I M36I N37D M46I R57K L63P A71V G73S I84V L90M I93L | p24 |  | >1 µM
O=C1c2c(O)c(=O)n(CC(c3ccncc3)N3CCOCC3)c(=O)n2CCN1Cc1ccc(F)cc1 |  |  | p24 |  | <10 µM
CC(C)(c1cc2cnccc2o1)N1CCN(C[C@@H](O)C[C@@H](Cc2ccccc2)C(=O)N[C@H]2c3ccccc3OC[C@H]2O)[C@H](C(=O)NCCC(F)(F)F)C1 | NL4-3 |  | p24 |  | 0.062 µM
O=C1c2c(O)c(=O)n(-c3ccc(N4CCOCC4)cc3)c(=O)n2CCN1Cc1ccc(F)cc1 |  |  | p24 |  | <10 µM
CC(C)=CCN1Cc2cc(Cl)cc3[nH]c(=S)n(c23)C[C@@H]1C |  |  | p24 |  | 0.8 µM
CCc1cc(NCc2nc3c(Cl)ccc(Cl)c3o2)c(=O)[nH]c1C | IIIB |  | p24 / ELISA |  | 0.05 µM
O=C(N[C@H]1c2ccccc2OC[C@H]1O)[C@H](Cc1cc2ccncc2o1)C[C@H](O)CN1CCN(Cc2ccc(-c3ccc(Cl)cc3)o2)C[C@H]1C(=O)NCC(F)(F)F | 4X (PR M46I L63P V82T I84V) | PR-M46I L63P V82T I84V | p24 |  | 0.0313 µM
CC(C)(c1ncc(-c2ccc(Cl)cc2)o1)N1CCN(C[C@@H](O)C[C@@H](Cc2nnco2)C(=O)N[C@H]2c3ccccc3OC[C@H]2O)[C@H](C(=O)NCC(F)(F)F)C1 | Q-60 Clinical isolate | PR-L10I N37S R41K M46I I54V I62V L63P A71V V77I V82A L90M I93L | p24 |  | 0.031 µM
CC(C)(c1ncc(-c2ccc(Cl)cc2)o1)N1CCN(C[C@@H](O)C[C@@H](Cc2cc3ccncc3s2)C(=O)N[C@H]2c3ccccc3OC[C@H]2O)[C@H](C(=O)NCC(F)(F)F)C1 | 4X (PR M46I L63P V82T I84V) | PR-M46I L63P V82T I84V | p24 |  | <0.0078 µM
COc1ccccc1NC(=O)CSc1nnnn1-c1cccc2ccccc12 |  |  | p24 |  | <10 µM
O=C(NCc1ccc(F)cc1)c1nc[nH]c(=O)c1O | IIIB |  | p24 / ELISA | 10% FBS | >10 µM
Cc1cc(C)c(-n2nnnc2SCC(=O)Nc2ccc(F)cc2C)c(C)c1 |  |  | p24 |  | <10 µM
CC(C)(c1ncc(-c2ccc(Cl)cc2)o1)N1CCN(C[C@@H](O)C[C@@H](Cc2cc3cnccc3s2)C(=O)N[C@H]2c3ccccc3OC[C@H]2O)[C@H](C(=O)NCC(F)(F)F)C1 | 4X (PR M46I L63P V82T I84V) | PR-M46I L63P V82T I84V | p24 |  | <0.0078 µM
O=C1c2c(O)c(=O)n(C3CCCCN(Cc4ccccc4)C3=O)c(=O)n2CCN1Cc1ccc(F)cc1 |  |  | p24 |  | <10 µM
O=C(N[C@H]1c2ccccc2OC[C@H]1O)[C@H](Cc1nnco1)C[C@H](O)CN1CCN(Cc2ccc(-c3ccc(Cl)cc3)o2)C[C@H]1C(=O)NCC(F)(F)F | K-60 Clinical isolate | PR-L10I M46I I54V Q58E L63P I64V V77I V82F I84V L90M I93L | p24 |  | 0.063 µM
Cc1ccncc1-c1ccc(C[C@H](C[C@H](O)CN2CCN(Cc3ccc(-c4ccc(Cl)cc4)s3)C[C@H]2C(=O)NCC(F)(F)F)C(=O)N[C@H]2c3ccccc3OC[C@H]2O)o1 | NL4-3 |  | p24 |  | <0.0078 µM
CC(=O)c1cc(NCc2nc3c(Cl)ccc(Cl)c3o2)c(=O)[nH]c1C | IIIB |  | p24 / ELISA |  | 0.1 µM
Cc1cccc(C)c1CNC(=O)[C@H]1N(C(=O)[C@@H](O)C[C@@H](Cc2ccccc2)C(=O)N[C@H]2c3ccccc3C[C@H]2O)CSC1(C)C |  |  | p24 |  | 0.031 µM
CC(C)(C)NC(=O)[C@@H]1CN(Cc2cc3cnccc3o2)CCN1C[C@@H](O)C[C@@H](Cc1ccccc1)C(=O)N[C@H]1c2ccccc2C[C@H]1O | NL4-3 |  |  |  | 0.015 µM
CC(C)(C)NC(=O)[C@@H]1CN(Cc2ccc(Cl)c(Cl)c2)CCN1C[C@@H](O)C[C@@H](Cc1ccccc1)C(=O)N[C@H]1c2ccccc2C[C@H]1O | IIIB |  | p24 |  | 0.2 µM
COc1ccc(Cc2ccccc2)cc1C(=O)CC(=O)C(=O)O | IIIB |  | p24 |  | 0.3 µM
CC(C)(C)NC(=O)[C@@H]1C[C@@H]2CCCC[C@@H]2CN1C[C@@H](O)[C@H](Cc1ccccc1)NC(=O)[C@@H](NC(=O)c1ccc2ccccc2n1)[C@@H]1CCSC1 | IIIB |  | p24 |  | >0.2 µM
O=C(N[C@H]1c2ccccc2OC[C@H]1O)[C@H](Cc1nnc(-c2ccccc2)o1)C[C@H](O)CN1CCN(Cc2ccc(-c3ccc(Cl)cc3)o2)C[C@H]1C(=O)NCC(F)(F)F | NL4-3 WT |  | p24 |  | 0.0156 µM
O=C1c2c(O)c(=O)n(CCc3cn4ccccc4n3)c(=O)n2CCN1Cc1ccc(F)cc1 |  |  | p24 |  | <10 µM
O=C(NCc1ccccc1)c1nc(-c2cccs2)[nH]c(=O)c1O |  |  | p24 | 10% FBS | >10 µM
CC(=O)N(C)C1CCn2c1nc(C(=O)NCc1ccc(F)cc1)c(O)c2=O | IIIB |  | p24 / ELISA | 10% FBS | >1 µM
O=C(NCc1ccc(F)cc1)c1nc[nH]c(=O)c1O |  |  | p24 | 50% human serum | >10 µM
CC(C)=CCN1c2cc(Cl)cc3[nH]c(=S)n(c23)C[C@@H]1C |  | RT-L74V K103N |  |  | 0.8 µM
CN(C)Cc1nc(C(=O)NCc2ccc(F)cc2)c(O)c(=O)[nH]1 |  |  | p24 | 10% FBS | >1 µM
CC(C)(c1cc2cnccc2o1)N1CCN(C[C@@H](O)C[C@@H](Cc2ccccc2)C(=O)N[C@H]2c3ccccc3OC[C@H]2O)[C@H](C(=O)NCc2cccs2)C1 | NL4-3 |  | p24 |  | 0.094 µM
Cc1ccncc1-c1ccc(C[C@H](C[C@H](O)CN2CCN(Cc3ncc(-c4ccc(Cl)cc4)o3)C[C@H]2C(=O)NCC(F)(F)F)C(=O)N[C@H]2c3ccccc3OC[C@H]2O)o1 | NL4-3 |  | p24 |  | <0.0078 µM

Repeating the first 3 entries:

SMILES	strain	changes	read by	conditions	value
CC(C)(C)NC(=O)[C@@H]1CN(C(C)(C)c2cc3cnccc3o2)CCN1C[C@@H](O)C[C@@H](Cc1ccccc1)C(=O)N[C@H]1c2ccccc2OC[C@H]1O	NL4-3				0.008 µM
O=C(O)C(=O)CC(=O)c1cccc(Cc2cccc(F)c2)c1	IIIB		p24		2.5 µM
CC(C)(C)CNC(=O)[C@@H]1CN(C(C)(C)c2cc3cnccc3o2)CCN1C[C@@H](O)C[C@@H](Cc1ccccc1)C(=O)N[C@H]1c2ccccc2OC[C@H]1O	NL4-3		p24		0.031 µM

Blank or dashed fields: not listed here. Neighbouring rows are from separate reports.